Read-outs that look alike come from different tables or passages of the source.
Tests used:
HIV-1 [1] = conditions: for Measure of the infectious power of the HIV-1 (p24): 14th day after inoculation
HIV-1 [2] = conditions: virus previously treated; syncytia in virus control from 14th day

N=C(N)N=NC(=N)N
protection of Supt-1 cells (HIV-1 [1]; dilution 1/500, treatment of the viruses for 1 minute only): protects the Supt-1 cells | Measure of the infectious power of the HIV-1 (p24) (HIV-1 [1]; dilution 1/500, viruses treated 1 min): 0.234 ± 0.008 optical density 492 nm | Measure of the infectious power of the HIV-1 (p24) (HIV-1 [1]; dilution 1/500, viruses treated 10 min): 0.267 ± 0.021 optical density 492 nm | Measure of the infectious power of the HIV-1 (p24) (HIV-1 [1]; dilution 1/500, viruses treated 30 min): 0.245 ± 0.020 optical density 492 nm | Measure of the infectious power of the HIV-1 (p24) (HIV-1 [1]; dilution 1/1500, viruses treated 1 min): 0.469 ± 0.013 optical density 492 nm | Measure of the infectious power of the HIV-1 (p24) (HIV-1 [1]; dilution 1/1500, viruses treated 10 min): 0.439 ± 0.008 optical density 492 nm | Measure of the infectious power of the HIV-1 (p24) (HIV-1 [1]; dilution 1/1500, viruses treated 30 min): 0.406 ± 0.032 optical density 492 nm | Measure of the infectious power of the HIV-1 (p24) (HIV-1 [1]; dilution 1/3000, viruses treated 1 min): 0.809 ± 0.049 optical density 492 nm | Measure of the infectious power of the HIV-1 (p24) (HIV-1 [1]; dilution 1/3000, viruses treated 10 min): 0.505 ± 0.023 optical density 492 nm | Measure of the infectious power of the HIV-1 (p24) (HIV-1 [1]; dilution 1/3000, viruses treated 30 min): 0.740 ± 0.013 optical density 492 nm | cytopathogenic effect (HIV-1 [2]): no cytopathogenic effect was observed
